Biological target: EBOV GP-ΔM (EBOV GP ectodomain lacking the mucin-like domain) (Zaire ebolavirus, Mayinga-76 …, UniProt Q05320, excluding residues 312–463, N-linked glycan on Asn563)
Details: both partners purified

Binder | stoichiometry N
Nanosota-EB1-His (VHH) VHH: QVQLQESGGGQVQAGGSLRLSCAASGSTSVIYAMGWYRQAPGKQRELVAAITRGVGSTNYADSVKGRFTISRDNAKNTMYLQMNSLKPEDTAVYYCNARLLVAPPPYEYDYWGQGTQVTVSS | 2 EB1 molecules per GP-ΔM trimer
Nanosota-EB2-His (VHH) VHH: QVQLQESGGGVVQAGGSLRLSCSASGRTFSNYAMAWFRQAPGKDREFAAGINYNGERTAYADSVKGRFTISRDDAKNTVYLQMNSLKPEDTAVYSCAARPWSIANLAYTYDSWGQGTQVTVSS | 3 EB2 molecules per GP-ΔM trimer

Source: article PMC11723632 (PLOS Pathogens, 2024)
